Data source: PubChem BioAssay AID504761 (Drosophila RNAi Screening Center, 2011)
The deposit covers about 22,000 reagents; this is a random part of those that have a named target and a result. Of all reagents, 116 (0.52%) are marked active. 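Calls depend on retest data that are not deposited; infection was ranked per plate without normalising between plates; the unit of the infection score is not given.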 The raw values are shown without normalisation. Not all columns of the deposit are shown. Not stated in the record: the amount of reagent, the time to read-out.

Test: 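Insect host genes that dengue virus relies on to spread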 (primary screen)
Cell system: D.Mel-2 cells from Drosophila
Reagent: long dsRNA against Drosophila genes
Challenge: infection with dengue virus type 2; dose and infection time not stated
Measurement: 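Cells stained for dengue envelope protein and imaged; percent of infected cells per well on duplicate plates, ranked by infection, with stained nuclei counted for cell number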
Reading the numbers: infection score: higher = more virus-infected cells; cell count: higher = more cells in the well
Active means: 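Very low infection ranking in both replicate wells (chance probability at most 0.065), then a retest showing infection dropped 1.5-fold or more at p below 0.05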
Calls: active = confirmed: knock-down lowers infection; inactive = not picked or not confirmed

The first 3 entries as a preview:
gene	dsRNA	infection score, replicate 1	infection score, replicate 2	cell count, replicate 1	outcome
Herc4	DRSC08631	0.8	1.5	6275	inactive
Tpt	DRSC27217	0.72	2.48	6346	inactive
tant	DRSC11401	0.68	2.7	6148	inactive

The list itself, from the start:
gene	dsRNA	infection score, replicate 1	infection score, replicate 2	cell count, replicate 1	outcome
Herc4	DRSC08631	0.8	1.5	6275	inactive
Tpt	DRSC27217	0.72	2.48	6346	inactive
tant	DRSC11401	0.68	2.7	6148	inactive
Pka-C1	DRSC03399	22.6	9.96	6315	inactive
Pka-C1	DRSC23314	1.96	6.87	6214	inactive
Pka-C1	DRSC28268	15.7	12.6	4681	inactive
Ptp52F	DRSC06717	16.8	11.4	6627	inactive
CG32243	DRSC08105	6.72	6.32	6873	inactive
CG31974	DRSC00522	5.1	11.2	6729	inactive
E(spl)mgamma-HLH	DRSC16699	13.3	1.55	6497	inactive
E(spl)mgamma-HLH	DRSC25532	3.23	2.12	6153	inactive
CG17754	DRSC18131	1.89	1.81	6769	inactive
DNAlig3	DRSC15201	16.1	12.9	5985	inactive
DNAlig3	DRSC29603	12.2	28.3	4548	inactive
caz	DRSC23280	1.97	3.87	6144	inactive
caz	DRSC29957	8.73	10.6	5535	inactive
CG32102	DRSC22015	3.43	4.94	7033	inactive
Gfrl	DRSC15197	14.3	11.2	6747	inactive
Gfrl	DRSC15199	9.49	3.69	6301	inactive
Gfrl	DRSC15565	4.89	3.72	7143	inactive
Gfrl	DRSC15719	10.1	0.99	5889	inactive
Gfrl	DRSC25385	7.85	1.9	6115	inactive
Gfrl	DRSC26132	14.7	5.35	6145	inactive
Gfrl	DRSC27810	12.6	33.9	6976	inactive
Gfrl	DRSC28808	14.1	14.9	5697	inactive
CG8562	DRSC10995	4.72	4.18	5905	inactive
CG8562	DRSC28778	3.05	6.73	557	inactive
CG6380	DRSC02950	3.75	11.5	6531	inactive
CG31551	DRSC12159	2.24	8.05	7099	inactive
CG31551	DRSC22403	2.33	2.49	5885	inactive
CG31551	DRSC27808	5.89	12.2	6857	inactive
CG33111	DRSC14208	5.65	4.74	5309	inactive
CG33111	DRSC14444	6.11	3.44	5419	inactive
CG8661	DRSC20115	2.08	4.51	6571	inactive
CG8661	DRSC29778	21.7	13.9	5891	inactive
Agpat1	DRSC19879	13.2	14.1	5200	inactive
Agpat1	DRSC19880	7.22	19	5717	inactive
nmo	DRSC08902	1.81	2.5	6251	inactive
nmo	DRSC11377	7.75	3.44	6335	inactive
nmo	DRSC27949	10.4	3.52	6313	inactive
